# Columns and labels:
# Amino acid sequences for entries named in this document (tags omitted). A change or cut given only in a name is not applied to a line headed by its entry.
# UniProt P15917: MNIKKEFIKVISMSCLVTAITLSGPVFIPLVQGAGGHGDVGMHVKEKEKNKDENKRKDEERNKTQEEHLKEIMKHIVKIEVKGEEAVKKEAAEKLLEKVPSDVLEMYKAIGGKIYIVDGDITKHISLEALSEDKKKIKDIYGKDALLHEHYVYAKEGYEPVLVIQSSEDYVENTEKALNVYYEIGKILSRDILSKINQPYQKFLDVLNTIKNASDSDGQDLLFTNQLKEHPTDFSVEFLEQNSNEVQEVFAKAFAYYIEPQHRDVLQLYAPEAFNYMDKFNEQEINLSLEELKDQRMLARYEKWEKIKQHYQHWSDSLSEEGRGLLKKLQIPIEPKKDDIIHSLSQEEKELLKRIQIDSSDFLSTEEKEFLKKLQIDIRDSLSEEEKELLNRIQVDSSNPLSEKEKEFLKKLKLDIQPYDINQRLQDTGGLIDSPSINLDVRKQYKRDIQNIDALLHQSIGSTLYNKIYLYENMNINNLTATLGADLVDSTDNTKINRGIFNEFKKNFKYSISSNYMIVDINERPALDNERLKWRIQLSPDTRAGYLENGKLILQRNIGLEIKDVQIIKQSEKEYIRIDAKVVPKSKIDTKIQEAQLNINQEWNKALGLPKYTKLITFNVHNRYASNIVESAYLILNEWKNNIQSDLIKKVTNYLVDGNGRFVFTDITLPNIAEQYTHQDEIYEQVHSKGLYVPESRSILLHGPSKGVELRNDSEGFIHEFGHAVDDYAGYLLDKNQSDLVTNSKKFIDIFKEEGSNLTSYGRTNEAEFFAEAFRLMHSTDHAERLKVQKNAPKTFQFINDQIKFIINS
# [1] = biological target: T1, Bacillus anthracis lethal factor (Bacillus anthracis, UniProt P15917); assay: Lethal factor HPLC-based cleavage assay
# [2] = Oxidation stability of the labeled peptide (methionine sidechain to sulfoxide)
# [3] = biological target: T1, Bacillus anthracis lethal factor; assay: Lethal factor cleavage of FRET analogs, increase in fluorescence; conditions: fluorescein/QSY-9 pair
substance,measurement,setting,value
(Flu)MPKKKPTP IQLNPAPD-NH2,levels of turnover,"[1]; peptide 100 μM, ~1 μM lethal factor, 2-4 hours at 30° C., metal ion supplemented buffer",15-30%
same,"fluorescein-mediated oxidation of methionine to sulfoxide, conversion","[2]; in solution in the presence of light, within one hour",up to 50%
(Flu)NleKKKKVLP IQLNAATDKGG-NH2,turnover rate compared with the MEK1-derived peptides (in words),[1],significantly higher turnover rate
(Flu)NleKKKKVLPIQLNAATDK(QSY-9)GG-NH2,signal of the FRET peptide,[3],did not produce a good signal
(Flu)NlePKKKPTP IQLNPAPDKGG-NH2,stability / propensity towards oxidation,[2],stable and showed no propensity towards oxidation
(QSY-9)NleKKKKVLPIQLNAATDK(Flu)GG-NH2,signal of the FRET peptide,[3],did not produce a good signal

# From patent US6955891B2 (priority 2002, dated 2005)
